Measurements reported in PubChem BioAssay AID504761 (Drosophila RNAi Screening Center, 2011)
Aim: 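Fly genes whose silencing reduces dengue virus type 2 infection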 (primary screen). Cell system: D.Mel-2 cells from Drosophila. Reagents: long dsRNA against Drosophila genes. Treatment: infection with dengue virus type 2; dose and infection time not stated. Detection: 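Per well on two replicate plates, imaging gave the percent of cells positive for viral envelope protein, ranked by infection, and a nuclear count of cells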. Scale: infection score: higher = more virus-infected cells; cell count: higher = more cells in the well. Hit rule: 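Very low infection ranking in both replicate wells (chance probability at most 0.065), then a retest showing infection dropped 1.5-fold or more at p below 0.05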. Calls: active = confirmed: knock-down lowers infection; inactive = not picked or not confirmed.
In all, the deposit lists about 22,000 reagents; below is a random part of those with a known target gene and a result. Over the whole deposit, 116 (0.52%) got an active call. 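Calls depend on retest data that are not deposited; infection was ranked per plate without normalising between plates; the unit of the infection score is not given.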 Raw values are not corrected between plates. A number with no mark means an inactive call. Reagents against one gene are numbered here. A plus sign joins genes that one reagent is predicted to hit. Not all columns of the deposit are shown. Not given: the amount of reagent, the time to read-out.

| target gene | dsRNA no. | infection score, replicate 1 | infection score, replicate 2 | cell count, replicate 1 |
| --- | --- | --- | --- | --- |
| CG18810 | 1 | 5.13 | 4.65 | 6415 |
| CG42720 (retired record) | 1 | 2.24 | 10.9 | 6645 |
| CG42720 (retired record) | 2 | 7.33 | 8.1 | 6328 |
| CG7248 | 1 | 3.39 | 4.49 | 5897 |
| sl | 1 | 3.59 | 7.81 | 6440 |
| sl | 2 | 3.37 | 1.16 | 5937 |
| CG12182 | 1 | 6.36 | 3.95 | 6350 |
| CG31677 | 1 | 4.38 | 9.38 | 6100 |
| lbl | 1 | 1.77 | 0.87 | 6439 |
| Yif1 | 1 | – | – | 293 |
| Ns4 | 1 | 12.1 | 20.7 | 6307 |
| Ns4 | 2 | 6.85 | 14.3 | 6514 |
| CG10555 | 1 | 1.51 | 12.1 | 6772 |
| CG10555 | 2 | 22.3 | 5.69 | 6669 |
| Sln | 1 | 4.51 | 5.72 | 6556 |
| Sln | 2 | 17 | 7.98 | 5578 |
| ENGase | 1 | 9.18 | 14.4 | 6555 |
| ENGase | 2 | 1.81 | 0.81 | 6865 |
| CG5984 | 1 | 6.37 | 1.45 | 5716 |
| CG12853 | 1 | 1.67 | 4.84 | 6402 |
| CG12853 | 2 | 17.5 | 31.9 | 6171 |
| Rab30 | 1 | 5.64 | 2.15 | 5889 |
| Rab30 | 2 | 2.58 | 5.46 | 6463 |
| CR18228 | 1 | 4.92 | 2.75 | 7079 |
| Su(dx) | 1 | 3.83 | 16.5 | 6000 |
| Su(dx) | 2 | 13.5 | 2.27 | 3894 |
| CG17140 + CG17139 | 1 | 8.39 | 2.09 | 6647 |
| CG17140 + CG17139 | 2 | 3.5 | 3.91 | 6596 |
| CG12945 | 1 | 3.79 | 7.68 | 6382 |
| Prat | 1 | 19.4 | 16.4 | 5805 |
| Fs | 1 | 5.65 | 2.89 | 6023 |
| Fs | 2 | 6.86 | 9.3 | 6287 |
| Fs | 3 | 1.11 | 1.13 | 6204 |
| CtsF | 1 | 1.92 | 0.47 | 6516 |
| CtsF | 2 | 3.65 | 8.86 | 6584 |
| CtsF | 3 | 6.85 | 1.73 | 6496 |
| prim | 1 | – | – | 388 |
| CG6833 | 1 | 4.82 | 4.28 | 6515 |
| CG6833 | 2 | 9.34 | 9.98 | 6276 |
